We go through three substances from PMC9767369, “Properties of rabies virus phosphoprotein and nucleoprotein biocondensates formed in vitro and in cellulo” (2022).

What all share (experiment): SEC-MALS; purified P constructs from E. coli; conditions not given
The test system of data set [1] is recombinant RABV P (PV strain), C261S, with C-terminal StrepTagII, rabies virus (PV strain), P06747 1-297.
Data set [2] deals with PΔNTD (RABV P, PV strain, C261S, amino acids 1-52 deleted, StrepTagII), rabies virus (PV strain), P06747 53-297.
In data set [3] the test system is PΔCTD (RABV P, PV strain, amino acids 195-296 deleted, StrepTagII), rabies virus (PV strain), P06747 1-297.

For the substance “recombinant RABV P (PV strain), C261S, with C-terminal StrepTagII”, the stoichiometry N in data set [1] was determined as 2.

Consider “PΔNTD (RABV P, PV strain, C261S, amino acids 1-52 deleted, StrepTagII)”, for which the stoichiometry N in data set [2] is 2.

In data set [3], “PΔCTD (RABV P, PV strain, amino acids 195-296 deleted, StrepTagII) Δ195-296” registered a stoichiometry N of 2.

One may read the stoichiometry N as a count of units in the complex or per binding partner.
